PubChem BioAssay AID1259414, Drosophila RNAi Screening Center – 2018
In all, the deposit lists about 24,000 reagents; shown is an unselected part of those with a known target gene and a result. Over the whole deposit, about 1,210 (5%) got an active call. 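Inactive calls also include excluded dsRNAs with several or no targets, genes unexpressed in JW18, and well A1, regardless of score.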 Unmarked entries are inactive. A plus sign joins genes that one reagent is predicted to hit.

- Test: 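Genome-wide screen for host control of endosymbiont load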 (primary screen)
- Cells: Drosophila JW18 cells infected with Wolbachia
- Reagents: long dsRNA against Drosophila genes, 0.25 µg dsRNA per well of a 384-well plate
- Duration: 5 days
- Treatment: cells persistently infected with Wolbachia before knock-down; no added drug
- Measured: 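Automated imaging of bacterial rRNA staining divided by host cell count, reported as plate-normalised robust z-score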
- Direction: Wolbachia per cell robust z: higher = more Wolbachia per host cell than the plate typical
- Call rule: 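Active if absolute robust z reaches 1.5 in two or more of three replicates, leaving out multi- or no-target dsRNAs, genes unexpressed in JW18 and A1 wells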

gene | dsRNA | Wolbachia per cell robust z, rep 1 | Wolbachia per cell robust z, rep 2 | Wolbachia per cell robust z, rep 3
CG34213 | DRSC38709 | 0.618 (active) | 1.52 | 1.76
Or43a (Odorant receptor 43a) | DRSC07485 | 0.432 | 0.287 | 0.179
CG18284 | DRSC02661 | -0.864 | 0.669 | 0.177
CG18284 | DRSC20756 | -0.136 | -7.79 | -2.08
CG18284 | DRSC25271 | -1.64 | 1.02 | -0.868
asRNA:CR32252 (antisense RNA:CR32252) | DRSC41327 | 1.63 | 1.08 | 0.212
Rnp4F (RNA-binding protein 4F) | DRSC18706 | 0.146 | -0.519 | -7.02
Rnp4F (RNA-binding protein 4F) | DRSC26480 | -0.654 | 1.88 | -0.319
NSD (Nuclear receptor binding SET domain protein) | DRSC15691 | -3.15 | -0.0532 | 1.52
CG5225 | DRSC24962 | 1.38 | 1.01 | 0.645
CG11790 | DRSC14390 | -1.23 | -2.23 | -0.148
Rrp46 | DRSC15537 | -1.06 | -2.56 | -0.319
c12.1 | DRSC18750 | -0.2 | -0.786 | 0.161
c12.1 | DRSC25556 | -0.385 | -0.611 | -1.01
Dpit47 (DNA polymerase interacting tpr containing protein of 47kD) | DRSC04985 | -0.975 | 0.654 | 0.348
Dpit47 (DNA polymerase interacting tpr containing protein of 47kD) | DRSC28888 | 0.824 | 0.485 | 1.36
CG41242 | DRSC41341 | 0.461 | -0.102 | 0.477
CG33932 + Rpp20 | DRSC19467 | -0.402 | -2.99 | -0.906
Rh6 (Rhodopsin 6) | DRSC16823 | -0.561 | 0.128 | -0.944
Rh6 (Rhodopsin 6) | DRSC26166 | -0.232 | 0.629 | 0.324
CG15019 | DRSC08473 | -0.952 | -1.38 | -0.386
ppk29 (pickpocket 29) | DRSC04205 | -0.325 | -0.139 | -0.961
Sema1b (Semaphorin 1b) | DRSC07550 | 0.341 | -0.268 | -10.7
Sema1b (Semaphorin 1b) | DRSC27552 | 0.499 | -0.42 | 0.269
Sam-S (S-adenosylmethionine Synthetase) | DRSC00758 | 1.45 | 0.451 | 0.729
CG43316 | DRSC06297 | 0.0816 | 0.581 | -1.8
CG43316 | DRSC28460 | 0.617 | 0.185 | 0.0523
IP3K2 (Inositol 1,4,5-triphosphate kinase 2) | DRSC19500 | -3.37 | -1.81 | -1.31
IP3K2 (Inositol 1,4,5-triphosphate kinase 2) | DRSC19711 | 0 | -0.51 | -2.38
IP3K2 (Inositol 1,4,5-triphosphate kinase 2) | DRSC19747 | -1.02 | 0.37 | -0.546
IP3K2 (Inositol 1,4,5-triphosphate kinase 2) | DRSC22614 | 0.655 | 0.532 | 0.113
IP3K2 (Inositol 1,4,5-triphosphate kinase 2) | DRSC24796 | 0.959 | 0.819 | 0.257
IP3K2 (Inositol 1,4,5-triphosphate kinase 2) | DRSC27191 | 0.89 | 1.3 | -0.291
